This note sets out measurements from patent publication US20220356229A1 (published 2022).

In experiment [1] the target is SARS-CoV-2 S (Wuhan-1, Genbank #: MN908947.3) (SARS-CoV-2, UniProt P0DTC2 14-1273). In words: cell-based or functional assay.
Experiment [2] has as its target T1, SARS-CoV-2 Spike (S) protein, wild type, full length (SARS-CoV-2, UniProt P0DTC2 14-1208). In words: bead assay, flow cytometry.
The target of experiment [3] is T1, SARS-CoV-2 Spike (S) protein, wild …. In words: bead assay, flow cytometry. The source holds these as a separate data set.
Experiment [4] has the same target. In words: bead assay, flow cytometry. This is another data set of the same source. (In general: In flow cytometry, cells or beads pass a laser one at a time.)

Like-named read-outs stand apart in the source and are kept apart here.

B1: mAb 1015 (antibody, V domains shown)
VH: EVQLVESGGGLVQPGGSLRLSCAASGFTFSSYWMHWVRQAPGKGLVWVSHINSDGSSTSYADSVKGRFTISRDNAKNTLYLQMNSLRAEDTAVYYCARGLRYFDLDVWGQGTTVTVSS
VL: QSVLTQPPSVSEAPRQRVTISCSGSSSNIGNNAVNWYQQLPGKAPKLLIFYDDLLPSGVSDRFSGSKSGTSASLAISGLQSEDEADYYCAAWDDSLNGGVFGGGTKLTVLG
In the case of B1, the “IC50 Wuhan-1 (pseudovirus neutralization, 293T-ACE2 cells, luciferase)” value in experiment [1] amounted to 0.011 µg/mL.

B2: mAb 1444 (antibody, V domains shown)
VH: QVQLVQSGAEVKKPGASVKVSCKASGYTFTAYYMHWVRQAPGQGLEWMGWINPNSDDTNYAQKFQGRVTMTRDTSISTAYMELSRLRSDDTAVYYCAREEGVFTIGDRYFDLWGRGTLVSVSS
VL: QTVVTQEPSFSVSPGGTVTLTCGLSSGSVSTSYYPSWYQQTPGQAPRTLIYNTNTRSSGVPDRFSGSILGNKAALTITGAQADDESDYYCVLYMGSGIWVFGGGTKLTVLG
Take B2: the “IC50 Wuhan-1 (pseudovirus neutralization, 293T-ACE2 cells, luciferase)” value in experiment [1] turned out to be 0.017 µg/mL.

B3: mAb 1139 (antibody, V domains shown)
VH: QVQLVQSGAEVKKPGASVKVSCKASGYTFSSYEINWVRQATGQGLEWMGRMTLNSGNTGYAQNFQGRVTMTRDTSISTAYMELSGLRSEDTAVYYCARMRSGWPTHGRPDDYWGQGTLVTVSS
VL: QSVLTQPPSASGTPGQRVTISCSGSNSNIGSYTVNWYQQLPGTAPKLLIYGNNQRPSGVPDRFSGSKSGTSASLAISGLQSEDEADYYCLAWDDSRNGLVFGGGTKLTVLG
B3: the “IC50 Wuhan-1 (pseudovirus neutralization, 293T-ACE2 cells, luciferase)” value in experiment [1] came out at 0.018 µg/mL.

B4: mAb 1135 (antibody, V domains shown)
VH: EVQLVESGGGLVQPGRSLRLSCAASGLTFEDYAMHWVRQVPGKGLEWVSGISWNSGTIGYADSVKGRFIISRDNAKNSLYLQMRSLRAEDTALYYCAKDVGFGELLYYAFDIWGQGTMVTVSS
VL: QSALTQPASVSGSPGQSITISCTGTSSDVGGYNYVSWYQQHPGKAPKLMIYDVSNRPSGVSNRFSGSKSGNTASLTISGLQAEDEADYYCSSYTSSSTVVFGGGTKLTVLG
Regarding B4, the “IC50 Wuhan-1 (pseudovirus neutralization, 293T-ACE2 cells, luciferase)” value in experiment [1] stood at 0.05 µg/mL.

B5: antibody 308 (antibody, V domains shown)
VH: QLQLQESGPGLVKPSETLSLTCSVSGGSISSSSYHWGWIRQPPGKGLEWIGSIYYSGSTYYNPSLKSRVTISVDTSKNQFSLKLRSVTAADTAVYYCAGLRVVITFGGVIPKGGAFDIWGQGTMVTVSS
VL: QSALTQPASVSGSPGQSITISCTGTSSDVGGYNYVSWYQQHPGKAPKLMIYDVSNRPSGVSNRFSGSKSGNTASLTISGLQAEDEADYYCSSYTSSSTVVFGGGTKLTVLG
Regarding B5, the “bead binding signal (fold over isotype)” value in experiment [2] amounted to 758 fold over isotype; in experiment [3] it was 398 fold over isotype; in experiment [4] it was 346 fold over isotype.

B6: mAb 1149 (antibody, V domains shown)
VH: QVQLVQSGAEVKKPGASVKVSCKASGYTFASYDINWVRQATGQGPEWMGWMIPNIGNTGYAQKFQGRVTMTRNTSISTAYMELSSLTSEDTAVYYCARVSRLFNDFGLRHEAPVDFWGQGTRVTVSS
VL: QSVLTQPPSVSGAPGQRVTISCTGSSSNIGAGYDVHWYQQLPGTAPKLLIYGYSSRPSGVPDRFSGSKSGTSASLAITGLQAEDEADYYCQSYDSSLSVLFGGGTKLTVLG
Turning to B6, the “IC50 Wuhan-1 (pseudovirus neutralization, 293T-ACE2 cells, luciferase)” value in experiment [1] is 0.016 µg/mL.

B7: antibody 305 (antibody, V domains shown)
VH: QVQLVESGGGVVQPGRSLRLSCAASGFTFSSYAMHWVRQAPGKGLEWVAVISYDGSNKYYADSVKGRFTISRDNSKNTLYLQMNSLRAEDTAVYYCAREQTSYDYVWGTLGAYYYYGMDVWGQGTTVTVSS
VL: SSELTQDPAVSVALGQTVRITCQGDSLRSYYASWYQQKPGQAPVLVIYGKNNRPSGIPDRFSGSSSGNTASLTITGAQAEDEADYYCNSRDSSGNHLVFGGGTKLTVL
With B7, the “bead binding signal (fold over isotype)” value in experiment [2] was 470 fold over isotype; in experiment [3], 130 fold over isotype; in experiment [4], 449 fold over isotype.

B8: mAb 851 (antibody, V domains shown)
VH: QITLKESGPTLVKPTQTLTLTCTFSGFSLSTNGVGMGWIRQPPGKALEWLALIYWDDDQFYSPSLKSRLTITRDTSKNQVVLTMTNMDPVDTATYYCAQAFYESFGFYSWGQGTLVTVSS
VL: NFMLTQPHSVSESPGKTVIISCTRSIGSIASNYVQWYQQRPGSAPTIVVFEDNERPSGVPDRFSGSIDRSSNSASLTISGLKTEDEADYYCQSYDGSSELVFGGGTKLTVLG
For B8, the “IC50 Wuhan-1 (pseudovirus neutralization, 293T-ACE2 cells, luciferase)” value in experiment [1] came out at 2.26 µg/mL.

B9: antibody 290 (antibody, V domains shown)
VH: QVHLVQSGAEVKKPGASVKVSCAASGYTFNNYGVSWVRQAPGQGLEWMGWISASNGNTKYAQNLQGRVTMTTDTSTSTAYMELRSLRSDDTAVYYCARDLVGPTAPNYYYGMDVWGQGTAVTVSS
VL: QSVLTQPPSVSGAPGQRVTISCTGSSSSIGAGYDVHWYQQLPGTAPKLLIYANSNRPSGVPDRLSGSKSGTSASLAITGLQAEDEADYYCQSYDSSLSGYVFGTGTKVTVL
On to B9, for which the binding result in experiment [4] was “no binding”.

B10: mAb 1538 (antibody, V domains shown)
VH: EVQLLESGGGLVQPGGSLRLSCAASGFTFSSYAMSWVRQAPGKGLEWVSGISDSGGSTYYADYVKGRFTISRDNSKDTLYLQMNSLRAEDTAVYYCAKDRGNEYALTHYYYYAMDVWGQGTTVTVSS
VL: DIQMTQSPSSLSASVGDRVTITCRASQSISSYLNWYQQKPGKAPKLLIYAAYSLQSGVPSRFSGGGSGTDFTLTISSLQPEDFATYFCQQSYSTPITFGQGTRLEIKR
Regarding B10, the “IC50 Wuhan-1 (pseudovirus neutralization, 293T-ACE2 cells, luciferase)” value in experiment [1] amounted to 0.114 µg/mL.

B11: mAb 1036 (antibody, V domains shown)
VH: QVQLVQSGAEVKKPGSSVKVSCKASGGTLSSYTISWVRQAPGQGLEWMGRIIPILGIADYAQKFQGRVTITADKSTTTAYMDLSSLGSEDTALYYCASAPKDWSSGFDYYYGMDVWGQGTMVTVSS
VL: DIVMTQTPLSLSVTPGQPASISCKSSQSLLNSDGKTYLYWYLQKAGQPPQLLIYEVSNRFSGVPERFSGSGSGTDFTLKISRVEAEDVGVYYCMQSVQLPPYTFGQGTKLEITR
On to B11, for which the “IC50 Wuhan-1 (pseudovirus neutralization, 293T-ACE2 cells, luciferase)” value in experiment [1] came to 0.039 µg/mL.

B12: antibody 307 (antibody, V domains shown)
VH: QVQLVESGGGVVQPGRSLRLSCAASGFTFSSYGMHWVRQAPGKGLEWVAVIWYDGSNKYYADSVKGRFTISRDNSKNTLYLQMNSLRAEDTAVYYCAKGYTWDYYYYGMDVWGQGTTVTVSS
VL: not shown
Consider B12, for which the “bead binding signal (fold over isotype)” value in experiment [2] is 1190 fold over isotype; in experiment [3], 573 fold over isotype; in experiment [4], 754 fold over isotype.

B13: mAb 923 (antibody, V domains shown)
VH: EVQLVESGGGVVRPGGSLRLSCAASGFIFDDYDMTWVRQAPGKGLEWVSGISWNGGNTGYADSVKGRFTISRDNAKNSLYLQMNSLRAEDTALYHCAVIMSPIPRYSGYDWAGGAFDIWGQGTMVTVSS
VL: SSELTQDPAVSVALGQTVRITCQGDSLRSYYASWYQQKPGQVPILVIYDKNNRPSGIPDRFSGSSSGNTASLTITGAQAEDEADYYCNSRDSSGNAVVFGGGTKLTVLG
As for B13, the “IC50 Wuhan-1 (pseudovirus neutralization, 293T-ACE2 cells, luciferase)” value in experiment [1] was determined as 0.093 µg/mL.

B14: mAb 1037 (antibody, V domains shown)
VH: QITLKESGPTLVKPTQTLTLTCTFSGFSLSTSGVGVGWIRQPPGKALEWLALIYWDDDKRYSPSLKSRLTITKDTSKNQVVLTMTNMDPVDTATYYCAHHTITRINDYWGQGTLVTVSS
VL: QSALTQPASVSGSPGQSITISCTATSSDVGAYNYVSWYQQHPGKAPKLMIYDVSKRPSGVSNRFSGSKSGNTASLTISGLQAEDEADYYCSSYTSSSTVFGGGTKLTVLG
With B14, the “IC50 Wuhan-1 (pseudovirus neutralization, 293T-ACE2 cells, luciferase)” value in experiment [1] was 0.025 µg/mL.

B15: antibody 297 (antibody, V domains shown)
VH: QVQLVESGGGVVQPGRSLRLSCAASGFTFSSYAMHWVRQAPGKGLEWVAVISYDGSNKYYADSVKGRFTISRDNSKNTLYLQMNSLRAEDTAVYYCARSFRGGYYYGMDVWGQGTTVTVSS
VL: DIQLTQSPSFLSASVGDRVTITCRASQGISSYLAWYQQKPGKAPKLLIYAASTLQSGVPSRFSGSGSGTEFTLTISSLQPEDFATYYCQQLNSYPLFTFGPGTKVDIK
B15: the figures for the “bead binding signal (fold over isotype)” value in experiment [2], in experiment [3] and in experiment [4] were 926 fold over isotype, 596 fold over isotype and 513 fold over isotype, respectively.

B16: mAb 896 (antibody, V domains shown)
VH: EVQLVESGGGVVQPGGSLRLSCAASGFTFDDYAMHWVRQVPGKGLEWVSLISGDGGSTYYADSVKGRFTISRDNSKNSLYVQMNSLRTEDTALYYCVKDRGGSGWDLNHYYYGMDVWGQGTTVTVSS
VL: DIQLTQSPSFLSASVGDRVTVTCRASQGISSYLAWYQQKPGKAPKLLIYAAYTLQSGVPSRFSGSGSETEFTLTISSLQPEDFATYYCQQVKSYPLTFGGGTKVEIKR
As to B16, the “IC50 Wuhan-1 (pseudovirus neutralization, 293T-ACE2 cells, luciferase)” value in experiment [1] was determined as 0.156 µg/mL.

B17: mAb 936 (antibody, V domains shown)
VH: EVQLVESGGGLVQPGRSLTLSCAGSGFTFDDYAMHWVRQAPGKGLEWVSGISWNSGSIGYADSVKGRFTISRDNAKNSLYLQMNSLRAEDTALYYCAKDVSYDSSGYYNNAFDIWGQGTMVTVSS
VL: DIQLTQSPSFLSASVGDRVTITCRASQGISSYLAWYQQKPGKAPKLLIYAASTLQSGVPSRFSGSGSGTEFTLTISSLQPEDFATYYCQQLYSYPVTFGQGTRLEIKR
For B17, in experiment [1], the “IC50 Wuhan-1 (pseudovirus neutralization, 293T-ACE2 cells, luciferase)” value worked out at 0.051 µg/mL.

B18: antibody 306 (antibody, V domains shown)
VH: QVQLVESGGGVVQPGRSLRLSCAASGFTFSSYGMHWVRQAPGKGLEWVAVIWYDGSNKYYADSVKGRFTISRDNSKNTLYLQMNSLRAEDTAVYYCAKDGGYCGGDCYSDGVDYWGQGTLVTVSS
VL: not shown
On to B18, for which, in experiment [4], the “bead binding signal (fold over isotype)” value is 338 fold over isotype.

B19: mAb 1075 (antibody, V domains shown)
VH: QVQLVQSGAEVKKPGASVKVSCKVSGYTLIELSMHWVRQAPGKGLEWMGGFDPEDGETIYAQKFQGRVTMTEDTSTDTAYMELSSLRSEDTAVYYCATEWAYYGSGSYLGYWGQGTLVTVSS
VL: EIVMTQSPATLSVSPGERATLSCRASQSVSSNLAWFQQKPGQAPRLLIYGASTRVTVIPARFSGSGSGTEFTLTISSLQSEDFAVYYCQQYNNWPRTFGQGTKVEIKR
Take B19: in experiment [1], the “IC50 Wuhan-1 (pseudovirus neutralization, 293T-ACE2 cells, luciferase)” value was determined as 0.039 µg/mL.
